Test results from publication PMC6332427, “Drug Discovery of Host CLK1 Inhibitors for Influenza Treatment” (Molecules, 2015).

Tested on: influenza virus A/PR/8/34 (H1N1)

With Hispidulin [J20353] the “Pre-Treatment Assay SI (selective index, CC50/EC50)” value was 3.19 and the “Simultaneous Treatment Assay SI (selective index, CC50/EC50)” value was 11.47.
